Results of unrelated studies side by side (data: NIAID ChemDB).

All rows: tests in culture; agent: Candida tropicalis

Percent inhibition refers to the dose given; in toxicity tests it is the harm to the cells. ECn: concentration that inhibits the pathogen or its effect by n%. Lines come from different laboratories, so protocols vary. MIC50, MIC90 and the like: level of inhibition, or share of isolates inhibited.

Clc1ccc(CCC(Cn2ccnc2)Sc2c(Cl)cccc2Cl)cc1 ; read-out: MIC50 ; strain: 19 isolates ; value: 0.12 µg/mL
O=C(O)c1cccc(-n2nnnc2SCc2cc([N+](=O)[O-])cc([N+](=O)[O-])c2)c1 ; read-out: EC80 ; strain: 156 ; conditions: 24 h ; read by: broth dilution ; value: >500 µM
C[C@@H](c1ncncc1F)[C@](O)(Cn1cncn1)c1ccc(F)cc1F ; read-out: MIC90 ; strain: 54 isolates ; value: 0.125 µg/mL
Clc1ccc(C(Cn2ccnc2)OCc2ccc(Sc3ccccc3)cc2)c(Cl)c1 ; read-out: MIC50 ; strain: 19 isolates ; value: 4 µg/mL
CC1(C)C=C2C3CCC4[C@@]5(C)CCC(O)C(C)(C)C5CC[C@@]4(C)[C@]3(C)CC[C@@]2(C(=O)O)CC1 ; read-out: MLC ; strain: ATCC 750 ; read by: broth dilution ; value: >200 µg/mL
O=[N+]([O-])c1cc(CSc2nnnn2-c2ccc(Cl)c(Cl)c2)cc([N+](=O)[O-])c1 ; read-out: EC80 ; strain: 156 ; conditions: 48 h ; read by: broth dilution ; value: >125 µM
C[C@@H]1O[C@@H](Oc2c(-c3ccc(O)c(O)c3)oc3cc(O)cc(O)c3c2=O)[C@H](O)[C@H](O)[C@H]1O ; read-out: MLC ; strain: ATCC 750 ; read by: broth dilution ; value: >200 µg/mL
O=[N+]([O-])c1cc(C[Se]c2nnnn2Cc2ccccc2)cc([N+](=O)[O-])c1 ; read-out: EC80 ; strain: 156 ; conditions: 48 h ; read by: broth dilution ; value: >500 µM
Oc1ccc(Cl)c2cccnc12 ; read-out: MIC ; strain: ATCC 750 ; conditions: 48 h ; value: 6.2 µg/mL
COc1cc(C[C@H](C)[C@H](C)Cc2ccc(O)c(O)c2)ccc1O ; read-out: MIC100 ; strain: CCC 131-1997 ; read by: broth dilution ; value: 62.5 µg/mL
C[C@H]1[C@H](O)[C@@H](C)/C=C/C=C/C=C/C=C/C=C/C=C/C=C/[C@H](O[C@@H]2O[C@H](C)[C@@H](O)[C@H](N)[C@@H]2O)C[C@@H]2O[C@](O)(C[C@@H](O)C[C@@H](O)CC[C@H](O)[C@@H](O)C[C@@H](O)CC(=O)O[C@H]1C)C[C@H](O)[C@H]2C(=O)O ; read-out: MIC50 ; strain: 54 isolates ; value: 1 µg/mL
COc1cc(O)c2c(c1)C(=O)c1c(cc3c(c1O)-c1c(cc(C)c(C(=O)N[C@H](CO)C(=O)O)c1O)[C@H](O[C@@H]1O[C@H](C)[C@H](O)[C@H](O)[C@H]1O)[C@H]3O)C2=O ; read-out: MIC ; strain: IFO 10241 ; value: 6.3 µg/mL
C[C@H]1[C@H](O)[C@@H](C)/C=C/C=C/C=C/C=C/C=C/C=C/C=C/[C@H](O[C@@H]2O[C@H](C)[C@@H](O)[C@H](N)[C@@H]2O)C[C@@H]2O[C@](O)(C[C@@H](O)C[C@@H](O)CC[C@H](O)[C@@H](O)C[C@@H](O)CC(=O)O[C@H]1C)C[C@H](O)[C@H]2C(=O)O ; dose: 0.54 µM ; read-out: inhibition ; strain: 156 ; read by: broth dilution ; value: 80%
CN(C/C=C/C#CC(C)(C)C)Cc1cccc2ccccc12 ; read-out: MIC50 ; strain: 17 clinical isolates ; read by: broth dilution ; value: 8 µg/mL
Oc1c(Cl)ccc2cccnc12 ; read-out: MIC ; strain: ATCC 750 ; conditions: 24 h ; value: 6.2 µg/mL
O=C(OC1Cc2c(O)cc(O)cc2OC1c1cc(O)c(O)c(O)c1)c1cc(O)c(O)c(O)c1 ; read-out: MIC50 ; strain: Clinical isolate 6 ; read by: broth dilution ; value: >128 µg/mL
CC(=O)N1CCN(c2ccc(OC[C@H]3CO[C@](Cn4ccnc4)(c4ccc(Cl)cc4Cl)O3)cc2)CC1 ; read-out: MIC50 ; strain: 17 clinical isolates ; read by: broth dilution ; value: ≤0.031 µg/mL
Clc1ccc(COC(Cn2ccnc2)c2ccc(Cl)cc2Cl)cc1 ; read-out: MIC90 ; strain: 19 isolates ; value: 8 µg/mL
Oc1cccc2cc(Cl)cnc12 ; read-out: MIC ; strain: ATCC 750 ; conditions: 24 h ; value: 25 µg/mL
O=C(O)c1cc(O)c(O)c(O)c1 ; read-out: MLC ; strain: ATCC 750 ; read by: broth dilution ; value: 200 µg/mL
Clc1ccc(COC(Cn2ccnc2)c2ccc(Cl)cc2Cl)c(Cl)c1 ; read-out: MIC100 ; strain: LM 759 ; read by: broth dilution ; value: 32 µg/mL

A second listing of 2 rows from above:

O=C(O)c1cc(O)c(O)c(O)c1 ; read-out: MLC ; strain: ATCC 750 ; read by: broth dilution ; value: 200 µg/mL
C[C@@H](c1ncncc1F)[C@](O)(Cn1cncn1)c1ccc(F)cc1F ; read-out: MIC90 ; strain: 54 isolates ; value: 0.125 µg/mL